Results deposited as PubChem BioAssay AID624099 (ICCB-Longwood, 2012).
Shown is one part, drawn at random, of about 21,000 reagents tested. 497 of all reagents (2.4%) were called active. 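Higher z means weaker E2 silencing; only reporter increases were scored, and knock-downs that hurt cell survival may mask genuine repressor factors.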 No sequences are given here.

Assay: 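Human genes that papillomavirus E2 requires to repress the HPV18 LCR promoter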 (primary screen)
Cell system: human C33A cervical carcinoma cells (HPV-negative) stably expressing BPV1 E2 and an HPV18 LCR luciferase reporter
Reagents: siRNA pool against human genes, 40 nM
Time to read-out: 72 h
Detection: 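Per-well luciferase luminescence, z-scored on each plate against the plate mean and SD with control wells left out, then averaged across three replicate plates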
Direction: mean z-score and z-score: higher = stronger reporter signal, weaker E2 silencing
Active means: 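Hit if mean z-score reaches 2 and two or more of three replicate z-scores also reach 2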

For GPX7 the deposit lists mean z-score -1.17; z-score, replicate A = -0.9; z-score, replicate B = -1.19; z-score, replicate C = -1.42; inactive.
For PLEKHO1, the values are mean z-score 0.14; z-score, replicate A = -0.03; z-score, replicate B = 0.16; z-score, replicate C = 0.3; inactive.
CDCA3 scored mean z-score 0.34; z-score, replicate A = 0.46; z-score, replicate B = 0.16; z-score, replicate C = 0.39; inactive.
Knock-down of PCID2 gave: mean z-score -2.3; z-score, replicate A = -2.58; z-score, replicate B = -2.14; z-score, replicate C = -2.19; inactive.
Knock-down of PADI4 came out at: mean z-score -0.1; z-score, replicate A = 0.16; z-score, replicate B = -0.39; z-score, replicate C = -0.08; inactive.
With knock-down of OMP, the record shows mean z-score -0.52; z-score, replicate A = -0.67; z-score, replicate B = -0.18; z-score, replicate C = -0.69; inactive.
After knock-down of ECHDC3, the screen gave mean z-score 2.52; z-score, replicate A = 2.61; z-score, replicate B = 2.54; z-score, replicate C = 2.42; active.
POU4F2 showed mean z-score -0.13; z-score, replicate A = -0.16; z-score, replicate B = -0.1; z-score, replicate C = -0.14; inactive.
Against KIF21A the deposit lists mean z-score 1.91; z-score, replicate A = 2.1; z-score, replicate B = 1.94; z-score, replicate C = 1.7; inactive.
Silencing of UTF1 came out at: mean z-score 1.9; z-score, replicate A = 1.65; z-score, replicate B = 1.42; z-score, replicate C = 2.63; inactive.
With knock-down of GPR78, the record shows mean z-score -0.77; z-score, replicate A = -0.82; z-score, replicate B = -0.75; z-score, replicate C = -0.74; inactive.
RPL10A gave mean z-score -4.02; z-score, replicate A = -3.61; z-score, replicate B = -3.9; z-score, replicate C = -4.54; inactive.

Ordered by “z-score, replicate A” (highest first): some entries from above.
PADI4: mean z-score = -0.1; z-score, replicate A = 0.16; z-score, replicate B = -0.39; z-score, replicate C = -0.08; outcome = inactive
OMP: mean z-score = -0.52; z-score, replicate A = -0.67; z-score, replicate B = -0.18; z-score, replicate C = -0.69; outcome = inactive
PCID2: mean z-score = -2.3; z-score, replicate A = -2.58; z-score, replicate B = -2.14; z-score, replicate C = -2.19; outcome = inactive

Additional entries:
With knock-down of GOLGA6B the results were mean z-score 0.38; z-score, replicate A = 0.28; z-score, replicate B = 0.31; z-score, replicate C = 0.55; inactive.
With knock-down of NPAT, the record shows mean z-score 1.48; z-score, replicate A = 1.33; z-score, replicate B = 1.8; z-score, replicate C = 1.31; inactive.
PLET1 scored mean z-score 1.29; z-score, replicate A = 1.34; z-score, replicate B = 1.67; z-score, replicate C = 0.85; inactive.
After knock-down of METTL13, the screen gave mean z-score 1.2; z-score, replicate A = 1.08; z-score, replicate B = 1.34; z-score, replicate C = 1.18; inactive.
OR6A2 scored mean z-score 0.28; z-score, replicate A = 0.34; z-score, replicate B = 0.27; z-score, replicate C = 0.22; inactive.
Knock-down of CTBP1-DT gave: mean z-score -0.03; z-score, replicate A = 0.02; z-score, replicate B = -0.19; z-score, replicate C = 0.09; inactive.
LOC387904 (retired record) showed mean z-score -0.97; z-score, replicate A = -0.85; z-score, replicate B = -0.85; z-score, replicate C = -1.21; inactive.
For LOC392208 (retired record) the deposit lists mean z-score -0.43; z-score, replicate A = -0.53; z-score, replicate B = -0.06; z-score, replicate C = -0.7; inactive.
After knock-down of ETFBKMT, the screen gave mean z-score -1.1; z-score, replicate A = -0.92; z-score, replicate B = -0.94; z-score, replicate C = -1.45; inactive.
With knock-down of GSDMC the results were mean z-score 1.2; z-score, replicate A = 1.46; z-score, replicate B = 1.33; z-score, replicate C = 0.82; inactive.
With knock-down of FXR1 the results were mean z-score -1.58; z-score, replicate A = -1.01; z-score, replicate B = -1.88; z-score, replicate C = -1.83; inactive.
For SIL1, the entry reads mean z-score -0.78; z-score, replicate A = -0.73; z-score, replicate B = -0.71; z-score, replicate C = -0.9; inactive.
TDG showed mean z-score 0.8; z-score, replicate A = 0.79; z-score, replicate B = 0.65; z-score, replicate C = 0.97; inactive.
Depletion of EML6 came out at: mean z-score -0.2; z-score, replicate A = 0.59; z-score, replicate B = -0.48; z-score, replicate C = -0.69; inactive.
Knock-down of CCL16 gave: mean z-score -0.05; z-score, replicate A = -0.07; z-score, replicate B = 0; z-score, replicate C = -0.08; inactive.
